# Results reported in PMC3566180, “Glucose 6P Binds and Activates HlyIIR to Repress Bacillus cereus Haemolysin hlyII Gene Expression” (PLoS ONE, 2013).
# The exact form of at least one protein or probe is not confirmed.
# Target: HlyIIR (Bacillus cereus Bt407) (UniProt Q7X506)
# Assay: ITC
# Settings: ITC200, 20 C, protein storage buffer (composition and pH not given), 28 uM HlyIIR in cell, 1.25 uM DNA injected (20 x 2 ul), recombinant protein, probe letters rebuilt from the primers and the genome
sequence,measurement,setting,value
GGAAATAATGTATCTGAATATAGGCTGTAATAAGTAATTGAAAATATAGTAATTCTCGAAATGAAGAATTCTATAATTTTTTTGCAGTTTTTTAAACAACAATTTTAAATTTGTATTTAAAATTGTTGTTTAAATCGTTATTTTATGTTTTAATAATGTTGATAATAGTTATCAATAATAGTGAGAGGAAGATTAGTGAAACATGTG (double strand) [hlyII promoter fragment (220 bp)],Kd,arabinose,110 nM
same,Kd,glucose 6P (1.7%),28.7 nM
same,Kd,no glucose 6P (data not shown),110 nM
